Measured values from PMC8982864 (PLoS Biology, 2022).

Assays:
[1] = molecular target: full-length Clostridioides difficile Toxin B (TcdB), C-terminal 6XHis-tag (UniProt P18177); experiment: ELISA; conditions: parent: est. 100; read off a plot
[2] = molecular target: full-length Clostridioides difficile Toxin B (TcdB), C-terminal 6XHis-tag (Clostridioides difficile (VPI 10463 …, UniProt P18177 1-2366)); experiment: BLI

Molecule | percent of parent [1] [%] | Kd [2] [nM]
CSPG4 domain 1 fragment D1_(401-560) with C-terminal GFP tag (from UniProt Q6UVK1) R450A | 20 | 
CSPG4 domain 1 fragment D1_(401-560) with C-terminal GFP tag (from UniProt Q6UVK1) D457N | 77 | 
CSPG4 domain 1 fragment D1_(401-560) with C-terminal GFP tag (from UniProt Q6UVK1) P485del; I486del | 18 | 
CSPG4 domain 1 fragment D1_(401-560) with C-terminal GFP tag (from UniProt Q6UVK1) E460A | 93 | 
CSPG4 domain 1 fragment D1_(401-560) with C-terminal GFP tag (domain or fragment, UniProt Q6UVK1 401-560, looked up, glycan density on Asn427 (predicted N-linked glycosylation), not shown: GFP, C-terminal, kept) LAPEAWPAMELPEPCVPEPGLPPVFANFTQLLTISPLVVAEGGTAWLEWRHVQPTLDLMEAELRKSQVLFSVTRGARHGELELDIPGAQARKMFTLLDVVNRKARFIHDGSEDTSDQLVLEVSVTARVPMPSCLRRGQTYLLPIQVNPVNDPPHIIFPHG |  | ~10
